# B1: S-B8 (antibody, V domains shown)
# VH: QVQLVQSGGGLIQPGGSLRLSCAASGFTVSLSHMNWVRQAPGKGLEWVSITYGDGNSDYADSVKGRFTISRDNSKNTLYLQMNSLRAEDTAVYYCAREYYYGMDVWGQGTTVTVSS
# VL: DIVMTQSPDSLAVSLGERATINCKSSQSVLYSSNNKNYLAWYQQKPGQPPKLLIYWASTRESGVPDRFSGSGSGTDFTLTISSLQAEDVAVYYCQQYYSLPLTFGGGTKLEIKR
# notes: also called S-B8 dimer
# B2: S-D4 (antibody, V domains shown)
# VH: QVQLQESGGGVVQPGRSLRLSCEVSGFTFSDYGMHWVRQAPGKGLEWVAVIWSEGSTEYYADSVKGRFTISRDNSKDTLYLQMNSLRAEDTAVYYCARPGYPTSTDRSPAAAGARQYYYYGMDVWGQGTTVTVSS
# VL: NFMLTQPHSVSESPGKTVTISCTRSGGSGAANYVQWYQQRPGSSPTTLIYEDSRRPPGVPDRFSGSVDTSSNSASLTISGLQTEDEADYYCQSYDSSNHVVFGGGTKLTVLG
# notes: also called S-D4 dimer; S-D4 IgG4
# B3: S-E6 (antibody, V domains shown)
# VH: QVTLRESGPGLVKPSETLSLTCAVSGGSLSSVNYYWSWIRQHPGKGLEWIGYIYYSGSTNYNPSLKSRVTMSLDTSKNQFSLKLSSVTAADTAVYYCATPGAIMGALHIWGQGTLVTVSS
# VL: QAVLTQPSSASSTPGQRVIISCSGSSSNIGSNTVSWYQQVPGAAPKLLIYFDYRRPSGVPDRFSGTRSGTSASLGISGLQSEDEADYYCAAWDDSLSAWVFGRGTKLTVLG
# notes: also called S-E6 dimer; dimer S-E6
# Molecular target: T1, MERS-CoV spike (MERS-CoV, UniProt K9N5Q8 18-1353)
# T1 construct: whole, on cells
# Experiment: FACS, transfected HEK293T cells, IgG4 antibody
row,Binder,binding result
1,B1,no binding
2,B2,no binding
3,B3,no binding

# Molecular target: T2, SARS-CoV spike (SARS-CoV, UniProt P59594 14-1255)
# T2 construct: whole, on cells
# Experiment: FACS, transfected HEK293T cells, IgG4 antibody
row,Binder,binding result
1,B1,no binding
2,B2,no binding
3,B3,no binding
